{"source": "PubChem BioAssay AID504761, Drosophila RNAi Screening Center | 2011", "purpose": "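Genome-wide fly cell screen for genes dengue virus requires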 (primary screen)", "cells": "D.Mel-2 cells from Drosophila", "reagents": "long dsRNA against Drosophila genes", "challenge": "infection with dengue virus type 2; dose and infection time not stated", "measurement": "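Cells stained for dengue envelope protein and imaged; percent of infected cells per well on duplicate plates, ranked by infection, with stained nuclei counted for cell number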", "direction": "infection score: higher = more virus-infected cells; cell count: higher = more cells in the well", "rule for the call": "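Low infection ranks in the two replicates (chance level up to 0.065) followed by a retest with a 1.5-fold or larger significant decrease, p below 0.05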", "calls": "active = confirmed: knock-down lowers infection; inactive = not picked or not confirmed", "note": "In all, the deposit lists about 22,000 reagents; below is a random part of those with a known target gene and a result. Of all reagents, 116 (0.52%) were called active. 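Calls depend on retest data that are not deposited; infection was ranked per plate without normalising between plates; the unit of the infection score is not given.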 Raw values are not corrected between plates. Unmarked entries are inactive. The numbers tell different reagents against one gene apart. A plus sign joins genes that one reagent is predicted to hit. Further read-outs or replicates are left out here. The record does not give: the amount of reagent, the time to read-out."}
{"Gene": "alpha-Man-IIa (GeneID 41126)", "reagent no.": 1, "infection score, replicate 1": 1.08, "cell count, replicate 1": 6372}
{"Gene": "P5cr (GeneID 42284)", "reagent no.": 1, "infection score, replicate 1": 6.09, "cell count, replicate 1": 5979}
{"Gene": "Nhe1 (GeneID 33167)", "reagent no.": 1, "cell count, replicate 1": 562}
{"Gene": "Octbeta1R (GeneID 42652)", "reagent no.": 1, "infection score, replicate 1": 2.98, "cell count, replicate 1": 1475}
{"Gene": "Octbeta1R (GeneID 42652)", "reagent no.": 2, "infection score, replicate 1": 2.49, "cell count, replicate 1": 6617}
{"Gene": "primo-2 + primo-1", "reagent no.": 1, "infection score, replicate 1": 1.42, "cell count, replicate 1": 6062}
{"Gene": "primo-2 + primo-1", "reagent no.": 2, "infection score, replicate 1": 4.81, "cell count, replicate 1": 6605}
{"Gene": "RpS29 + snoRNA:Psi18S-1275", "reagent no.": 1, "infection score, replicate 1": 14.5, "cell count, replicate 1": 3297}
{"Gene": "amrt (GeneID 32342)", "reagent no.": 1, "infection score, replicate 1": 2.3, "cell count, replicate 1": 6488}
{"Gene": "amrt (GeneID 32342)", "reagent no.": 2, "infection score, replicate 1": 3.65, "cell count, replicate 1": 6248}
{"Gene": "CG42686 (retired record) (GeneID 42674)", "reagent no.": 1, "infection score, replicate 1": 6.72, "cell count, replicate 1": 5491}
{"Gene": "CG42686 (retired record) (GeneID 42674)", "reagent no.": 2, "infection score, replicate 1": 4.51, "cell count, replicate 1": 6070}
{"Gene": "CG42686 (retired record) (GeneID 42674)", "reagent no.": 3, "infection score, replicate 1": 5.62, "cell count, replicate 1": 6321}
{"Gene": "CG42686 (retired record) (GeneID 42674)", "reagent no.": 4, "infection score, replicate 1": 2.87, "cell count, replicate 1": 906}

The list goes on (2 carried over from the part before).
{"Gene": "CG42686 (retired record) (GeneID 42674)", "reagent no.": 3, "infection score, replicate 1": 5.62, "cell count, replicate 1": 6321}
{"Gene": "CG42686 (retired record) (GeneID 42674)", "reagent no.": 4, "infection score, replicate 1": 2.87, "cell count, replicate 1": 906}
{"Gene": "CG8642 (GeneID 35845)", "reagent no.": 1, "infection score, replicate 1": 6.38, "cell count, replicate 1": 6831}
{"Gene": "trp (GeneID 43542)", "reagent no.": 1, "infection score, replicate 1": 6.73, "cell count, replicate 1": 6431}
{"Gene": "CLIP-190 (GeneID 35042)", "reagent no.": 1, "infection score, replicate 1": 3.89, "cell count, replicate 1": 6201}
{"Gene": "CLIP-190 (GeneID 35042)", "reagent no.": 2, "infection score, replicate 1": 2.38, "cell count, replicate 1": 6179}
{"Gene": "BBS4 (GeneID 36167)", "reagent no.": 1, "infection score, replicate 1": 4.09, "cell count, replicate 1": 5993}
{"Gene": "BBS4 (GeneID 36167)", "reagent no.": 2, "infection score, replicate 1": 12.7, "cell count, replicate 1": 6035}
{"Gene": "CG8773 (GeneID 41634)", "reagent no.": 1, "infection score, replicate 1": 2.94, "cell count, replicate 1": 6196}
{"Gene": "CG8773 (GeneID 41634)", "reagent no.": 2, "infection score, replicate 1": 15.9, "cell count, replicate 1": 5772}
